From ChEMBL document CHEMBL1135602 (J Med Chem, 2002)

Chains of the proteins cited; added tags and fusions are not shown.
UniProt P13922, whole entry, stated change not applied: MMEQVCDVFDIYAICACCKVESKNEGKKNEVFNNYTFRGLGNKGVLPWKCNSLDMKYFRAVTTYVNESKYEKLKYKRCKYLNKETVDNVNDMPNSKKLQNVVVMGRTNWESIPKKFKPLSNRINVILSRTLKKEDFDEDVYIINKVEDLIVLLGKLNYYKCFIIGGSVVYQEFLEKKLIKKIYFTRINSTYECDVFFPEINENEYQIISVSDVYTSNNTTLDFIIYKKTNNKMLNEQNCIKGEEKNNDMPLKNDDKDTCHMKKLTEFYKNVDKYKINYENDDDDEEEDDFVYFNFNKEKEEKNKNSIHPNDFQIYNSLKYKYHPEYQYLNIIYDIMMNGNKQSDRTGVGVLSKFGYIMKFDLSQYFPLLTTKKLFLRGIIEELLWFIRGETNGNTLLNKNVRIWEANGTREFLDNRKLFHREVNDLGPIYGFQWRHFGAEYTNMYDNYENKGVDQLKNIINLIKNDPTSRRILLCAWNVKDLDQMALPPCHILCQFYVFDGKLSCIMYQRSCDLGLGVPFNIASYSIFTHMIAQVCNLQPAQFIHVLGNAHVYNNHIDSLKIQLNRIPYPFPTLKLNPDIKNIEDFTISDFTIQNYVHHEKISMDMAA

What was measured:
[1] = target: Bifunctional dihydrofolate reductase-thymidylate synthase (Plasmodium falciparum K1, UniProt P13922, S108N); experiment: Inhibition of the S108N mutant of dihydrofolate reductase (DHFR)
Method in brief: (§1)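 Assay at 25 °C: 50 mM TES pH 7.0, 75 mM β-mercaptoethanol, 1 mg/mL BSA, 100 µM H2folate and 100 µM NADPH. NADPH oxidation followed at 340 nm. Ki derived from IC50 as Ki(1+[S]/Km), assuming competitive inhibition.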

[2] = target: Bifunctional dihydrofolate reductase-thymidylate synthase (Plasmodium falciparum K1, UniProt P13922); experiment: Inhibition of the C59R+S108N mutant of dihydrofolate reductase (DHFR); method in brief: as §1
[3] = target: Bifunctional dihydrofolate reductase-thymidylate synthase (Plasmodium falciparum K1) (UniProt P13922); experiment: Inhibition of mutant S108N dihydrofolate reductase (DHFR) relative to Pyr
[4] = target: Bifunctional dihydrofolate reductase-thymidylate synthase (Plasmodium falciparum K1) (UniProt P13922); experiment: Inhibition of mutant C59R+S108N dihydrofolate reductase (DHFR) relative to Pyr
[5] = test system: Bifunctional dihydrofolate reductase-thymidylate synthase (Plasmodium falciparum K1), P13922 [UNDEFINED MUTATION]; experiment: Ratio of Inhibition of the S108N mutant of dihydrofolate reductase (DHFR) to inhibition of wild type dihydrofolate reductase.
[6] = test system: Bifunctional dihydrofolate reductase-thymidylate synthase (Plasmodium falciparum K1), P13922 [UNDEFINED MUTATION]; experiment: Ratio of Inhibition of the C59R+S108N mutant of dihydrofolate reductase (DHFR) to inhibition of wild type dihydrofolate reductase.

## CCc1nc(N)nc(N)c1-c1ccc(OCc2ccc(Cl)cc2Cl)c(OC)c1
[1]
  Ki: 20.9 nM
[2]
  Ki: 42.3 nM
[3]
  Relative activity: 0.7
[4]
  Relative activity: 0.8
[5]
  Ratio: 20.9
[6]
  Ratio: 42.3

## COc1cc(Cc2cnc(N)nc2N)ccc1OCc1cc(OC)c(OC)c(OC)c1
[5]
  Ratio: 10.3
[6]
  Ratio: 14.5
